Measured values from several laboratories, pooled; numbers as filed in NIAID ChemDB.

Shared fields: tests in culture; organism: Mycobacterium avium

Neighbouring rows are from separate reports.

smiles | strain | read by | endpoint | result
CCc1cc(C(N)=S)ccn1 | ATCC 25291 |  | Median MIC | >5 µg/mL
CCn1cc(C(=O)O)c(=O)c2cc(F)c(N3CCNCC3)cc21 | 63 strains |  | MIC50 | 16 µg/mL
C[C@@H]1CN(c2c(F)c(N)c3c(=O)c(C(=O)O)cn(C4CC4)c3c2F)C[C@H](C)N1 |  |  | MBC | 4 µg/mL
CO[C@H]1/C=C/O[C@@]2(C)Oc3c(C)c(O)c4c(O)c(c(N5CCN(Cc6c(C)cc(C)cc6C)CC5)c(O)c4c3C2=O)NC(=O)/C(C)=C\C=C\[C@H](C)[C@H](O)[C@@H](C)[C@@H](O)[C@@H](C)[C@H](OC(C)=O)[C@@H]1C | 9141 |  | MBC | 4 µg/mL
CCn1cc(C(=O)O)c(=O)c2cc(F)c(N3CCNCC3)nc21 | 22 strains |  | MIC50 | 32 µg/mL
CO[C@H]1/C=C/O[C@@]2(C)Oc3c(C)c(O)c4c(O)c(c(/C=N/N5CCN(C)CC5)c(O)c4c3C2=O)NC(=O)/C(C)=C\C=C\[C@H](C)[C@H](O)[C@@H](C)[C@@H](O)[C@@H](C)[C@H](OC(C)=O)[C@@H]1C | Isolate 91-0129 |  | MIC | 30 µg/mL
CC[C@H]1OC(=O)[C@H](C)[C@@H](O[C@H]2C[C@@](C)(OC)[C@@H](O)[C@H](C)O2)[C@H](C)[C@@H](O[C@@H]2O[C@H](C)C[C@H](N(C)C)[C@H]2O)[C@](C)(OC)C[C@@H](C)C(=O)[C@H](C)[C@@H](O)[C@]1(C)O | LR114F |  | MIC | 2 µg/mL
CC[C@H]1OC(=O)[C@H](C)[C@@H](O[C@H]2C[C@@](C)(OC)[C@@H](O)[C@H](C)O2)[C@H](C)[C@@H](O[C@@H]2O[C@H](C)C[C@H](N(C)C)[C@H]2O)[C@](C)(OC)C[C@@H](C)C(=O)[C@H](C)[C@@H](O)[C@]1(C)O | Clinical isolate |  | MIC50 | <4 µg/mL
O=C(O)c1cn(-c2ccc(F)cc2)c2cc(N3CCNCC3)c(F)cc2c1=O | 22 strains |  | MIC50 | 8 µg/mL
CC1CN(c2c(F)c(N)c3c(=O)c(C(=O)O)cn(C4CC4)c3c2F)CCN1C | SMD |  | MIC | 0.5 µg/mL
NCC[C@H](O)C(=O)N[C@@H]1C[C@H](N)[C@@H](O[C@H]2O[C@H](CN)[C@@H](O)[C@H](O)[C@H]2O)[C@H](O)[C@H]1O[C@H]1O[C@H](CO)[C@@H](O)[C@H](N)[C@H]1O | Clinical isolate |  | MIC50 | 16 µg/mL
C[C@@H]1CN(c2c(F)c(N)c3c(=O)c(C(=O)O)cn(C4CC4)c3c2F)C[C@H](C)N1 | ATCC 25291 |  | Mean MIC | 3 µg/mL
CC[C@@H](CO)NCCN[C@@H](CC)CO | RG0 |  | MIC | 16 µg/mL
NC[C@H]1O[C@H](O[C@H]2[C@H](O)[C@@H](O[C@H]3O[C@H](CO)[C@@H](O)[C@H](N)[C@H]3O)[C@H](N)C[C@@H]2N)[C@H](N)C[C@@H]1O | ATCC 25291 |  | Median MIC | 4 µg/mL
CO[C@H]1/C=C/O[C@@]2(C)Oc3c(C)c(O)c4c(O)c(c5c(c4c3C2=O)NC2(CCN(CC(C)C)CC2)N=5)=NC(=O)/C(C)=C\C=C\[C@H](C)[C@H](O)[C@@H](C)[C@@H](O)[C@@H](C)[C@H](OC(C)=O)[C@@H]1C | 30 strains |  | Median MIC | 0.5 µg/mL
N[C@@H]1CONC1=O | ATCC 25291 |  | Median MIC | 50 µg/mL
N[C@@H]1CN(c2c(F)cc3c(=O)c(C(=O)O)cn([C@@H]4C[C@@H]4F)c3c2Cl)CC12CC2 | N-444 | broth dilution | MBC | 2 µg/mL
CCOc1ccc(NC(C)=O)cc1 | MAC104 |  | MBC | 3200 µg/mL
CNn1cc(C(=O)O)c(=O)c2cc(F)c(N3CCN(C)CC3)cc21 | 22 strains |  | MIC50 | 16 µg/mL
CN[C@@H]1[C@@H](O)[C@@H](O[C@@H]2[C@@H](O)[C@H](O[C@H]3O[C@H](CN)CC[C@H]3N)[C@@H](N)C[C@H]2N)OC[C@]1(C)O | ATCC 25291 |  | Median MIC | 4 µg/mL
CC1COc2c(N3CCN(C)CC3)c(F)cc3c(=O)c(C(=O)O)cn1c23 | 13 strains |  | MIC50 | 16 µg/mL
CO[C@H]1/C=C/O[C@@]2(C)Oc3c(C)c(O)c4c(O)c(c(/C=N/N5CCN(C)CC5)c(O)c4c3C2=O)NC(=O)/C(C)=C\C=C\[C@H](C)[C@H](O)[C@@H](C)[C@@H](O)[C@@H](C)[C@H](OC(C)=O)[C@@H]1C | ATCC 25291 |  | Mean MIC | 9.25 µg/mL
Oc1ccc(O)cc1 | MAC104 |  | MBC | 3200 µg/mL
CN1CCN(c2cc3c(cc2F)c(=O)c(C(=O)O)cn3-c2ccc(F)cc2)CC1 | 22 strains |  | MIC50 | 8 µg/mL
O=C1C=CC(=O)c2c(O)ccc(O)c21 | MAC104 |  | MBC | 12.5 µg/mL
CC[C@H]1OC(=O)[C@H](C)[C@@H](O[C@H]2C[C@@](C)(OC)[C@@H](O)[C@H](C)O2)[C@H](C)[C@@H](O[C@@H]2O[C@H](C)C[C@H](N(C)C)[C@H]2O)[C@](C)(OC)C[C@@H](C)C(=O)[C@H](C)[C@@H](O)[C@]1(C)O | ATCC 25291 |  | Median MIC | 2 µg/mL
C[C@@H]1CN(c2c(F)c(N)c3c(=O)c(C(=O)O)cn(C4CC4)c3c2F)C[C@H](C)N1 | 9 isolates (HIV+) |  | MIC90 | 8 µg/mL
CC(C)N=c1cc2n(-c3ccc(Cl)cc3)c3ccccc3nc-2cc1Nc1ccc(Cl)cc1 | Clinical isolate |  | MIC50 | 0.12 µg/mL
Nc1ccc(C(=O)O)c(O)c1 | ATCC 25291 |  | Mean MIC | 80 µg/mL

3 of the rows above, restated:

smiles | strain | read by | endpoint | result
CO[C@H]1/C=C/O[C@@]2(C)Oc3c(C)c(O)c4c(O)c(c5c(c4c3C2=O)NC2(CCN(CC(C)C)CC2)N=5)=NC(=O)/C(C)=C\C=C\[C@H](C)[C@H](O)[C@@H](C)[C@@H](O)[C@@H](C)[C@H](OC(C)=O)[C@@H]1C | 30 strains |  | Median MIC | 0.5 µg/mL
N[C@@H]1CONC1=O | ATCC 25291 |  | Median MIC | 50 µg/mL
CNn1cc(C(=O)O)c(=O)c2cc(F)c(N3CCN(C)CC3)cc21 | 22 strains |  | MIC50 | 16 µg/mL

Blank or dashed fields: not listed here. MIC50, MIC90 and the like: level of inhibition, or share of isolates inhibited.